Test system: human lung cancer cell line A549
Assay: Chicken embryo CAM assay, PLTX from different corals
Details: Palytoxin at 1 nM; for Tumor weight: 100 μl onto the tumor E11, E13, E15, E17, weighed E18; for Metastasis (ratio of QPCR Alu signal compared to group PLTX from Palythoa Heliodiscus): lower CAM

palytoxin [Palythoa Heliodiscus]
Tumor weight: 16.63 mg
Metastasis (ratio of QPCR Alu signal compared to group PLTX from Palythoa Heliodiscus): 1

palytoxin [Palythoa aff. Clavata]
Tumor weight: 17.49 mg
Metastasis (ratio of QPCR Alu signal compared to group PLTX from Palythoa Heliodiscus): 3.27

palytoxin [Palythoa sp. Pc001]
Tumor weight: 18.16 mg
Metastasis (ratio of QPCR Alu signal compared to group PLTX from Palythoa Heliodiscus): 1.53

From patent US20200147037A1, “NEW TREATMENT OF BRAIN CANCER” (priority 2017, published 2020)
